Target: human Spindlin1_50–262 (Homo sapiens, UniProt Q9Y657)
Experiment: ITC

How did the Ka turn out when HBx2-21 L18R peptide was run?
The Ka was 31100 M⁻¹.

And the stoichiometry N?
Its stoichiometry N is 1.1.

Reference: publication PMC10400593, “Molecular insights into Spindlin1-HBx interplay and its impact on HBV transcription from cccDNA minichromosome” (Nature Communications, 2023)
